Compound potency records, mixed from different reports. Data source: NIAID ChemDB in PubChem.

Shared fields: growth or infection tests; agent: HIV-1; cell line: CEM; method: syncytia; measure: fold resistance

Neighbouring rows are from separate reports. Blank or dashed fields: not listed here. Fold resistance has wild type as its base.

{"compound": "CC(C)OC(=O)c1cc(NC(=S)OC(C)C)ccc1Cl", "changes": "RT-V106A", "value": "73.6"}
{"compound": "Cc1occc1C(=O)Nc1ccc(Cl)c(/C=N/N2CCCC2)c1", "changes": "RT-L100I", "strain or isolate": "R82150-resistant (RT L100I)", "value": "<6.15"}
{"compound": "COc1ccc(NC(=S)c2ccsc2C)cc1OCC=C(Cl)Cl", "changes": "RT-L100I", "strain or isolate": "TIBO R82150-resistant (RT L100I)", "value": "18"}
{"compound": "CCc1c(Sc2cc(C)cc(C)c2)n(COCc2ccccc2)c(=S)[nH]c1=O", "changes": "RT-L100I", "strain or isolate": "IIIB (TIBO 82150) (RT-L100I)", "value": "1.33"}
{"compound": "CCOC(=O)c1cc(NC(=S)OC(C)C)ccc1SC", "changes": "RT-L100I", "value": "58.5"}
{"compound": "Cc1occc1C(=S)Nc1ccc(Cl)c(/C=N/OC(C)(C)C)c1", "changes": "RT-E138K", "strain or isolate": "IIIB", "value": "2"}
{"compound": "CCC1=C(C(=O)Nc2ccc(Cl)c(C(=O)OC(C)C)c2)SCCO1", "changes": "RT-L100I", "strain or isolate": "TIBO-resistant (RT L100I)", "value": "15"}
{"compound": "CC(C)c1c(Sc2ccccc2)n(COCCO)c(=S)[nH]c1=O", "changes": "RT-E138K", "strain or isolate": "IIIB", "value": "0.75"}
{"compound": "CCCCOC(=O)c1cc(NC(=O)C2=C(C)OCCS2)ccc1Cl", "changes": "RT-E138K", "strain or isolate": "TSAO-resistant (RT E138K)", "value": "87.5"}
{"compound": "C=C(C)COc1cc(NC(=S)OC(C)C)ccc1Cl", "changes": "RT-E138K", "value": "7.78"}
{"compound": "CC1=C(C(=O)Nc2cc(C(=O)OC(C)C)c(F)cc2F)SCCO1", "changes": "RT-L100I", "strain or isolate": "TIBO-resistant (RT L100I)", "value": ">11.8"}
{"compound": "C=C(Cl)COc1cc(NC(=S)c2ccsc2C)ccc1C#N", "changes": "RT-K103N", "strain or isolate": "TIBO R82913-resistant (RT K103N)", "value": "13.3"}
{"compound": "CC(C)COC(=O)c1cc(NC(=S)OC(C)C)ccc1Cl", "changes": "RT-Y181C", "value": "202.1"}
{"compound": "COc1ccc(NC(=O)C2=C(C)OCCS2)cc1OCC=C(Cl)Cl", "changes": "RT-E138K", "strain or isolate": "TSAO-m3T-resistant (RT E138K)", "value": "2.5"}
{"compound": "CC(C)OC(=S)Nc1ccc(Cl)c(C(=O)OCC2CC2)c1", "changes": "RT-L100I", "value": "17.5"}
{"compound": "CCSCC1=C(C(=O)Nc2ccc(Cl)c(C(=O)OC(C)C)c2)SCCO1", "changes": "RT-L100I", "strain or isolate": "TIBO-resistant (RT L100I)", "value": "2.33"}
{"compound": "CO/N=C/c1cc(NC(=S)OC(C)C)ccc1Cl", "changes": "RT-Y181C", "value": "83.4"}
{"compound": "CC1=C(C(=O)Nc2ccc(Cl)c(C(=O)OC(C)C)c2)SCCO1", "changes": "RT-Y188H", "strain or isolate": "IIIB", "value": "67"}
{"compound": "COc1ccc(NC(=S)c2ccoc2C)cc1OCC=C(Cl)Cl", "changes": "RT-E138K", "strain or isolate": "TSAO-m3T-resistant (RT E138K)", "value": "4.17"}
{"compound": "CC(=O)OCCOC(=O)c1cc(NC(=S)OC(C)C)ccc1Cl", "changes": "RT-V106A", "value": ">10"}
{"compound": "CC1=C(C(=O)Nc2ccc(Cl)c(C(=O)OC3CCCCC3)c2)SCCO1", "changes": "RT-V106A", "strain or isolate": "Nevirapine-resistant (RT V106A)", "value": "125"}
{"compound": "C=C(Cl)COc1cc(NC(=S)c2ccoc2C)ccc1C", "changes": "RT-Y188H", "strain or isolate": "HEPT-resistant (RT Y188H)", "value": "22.2"}
{"compound": "CC1=C(C(=O)Nc2ccc(Cl)c(C(=O)OC(C)C)c2)SCCO1", "changes": "RT-L100I", "strain or isolate": "IIIB", "value": ">2670"}
{"compound": "CC(C)OC(=O)c1cc(NC(=S)SC(C)C)ccc1Cl", "changes": "RT-Y181C", "value": ">1.54"}
{"compound": "CC(C)=CCOc1cc(NC(=S)c2ccoc2C)ccc1Cl", "changes": "RT-Y188H", "strain or isolate": "IIIB", "value": "5"}
{"compound": "CC(=O)COc1cc(NC(=S)OC(C)C)ccc1Cl", "changes": "RT-Y181C", "value": "15"}
{"compound": "CCC(=O)Oc1ccc(NC(=O)C2=C(C)OCCS2)cc1C(=O)OC(C)C", "changes": "RT-V106A", "strain or isolate": "Nevirapine-resistant (RT V106A)", "value": ">2.22"}
{"compound": "C#CCOc1cc(NC(=S)OC(C)C)ccc1Cl", "changes": "RT-E138K", "value": "8.75"}
{"compound": "COc1ccc(NC(=O)c2ccoc2C)cc1OCC=C(Cl)Cl", "changes": "RT-Y181C", "strain or isolate": "Pyridone-resistant (RT Y181C)", "value": "32"}
{"compound": "CC(C)OC(=S)Nc1ccc(Cl)c(C(=O)SC(C)C)c1", "changes": "RT-E138K", "value": "20.1"}
{"compound": "COCC1=C(C(=O)Nc2ccc(Cl)c(C(=O)OC(C)C)c2)SCCO1", "changes": "RT-Y181C", "strain or isolate": "PYR-resistant (RT Y181C)", "value": ">14.3"}
{"compound": "CCc1c(Sc2ccccc2)n(COCc2ccccc2)c(=O)[nH]c1=O", "changes": "RT-L100I", "strain or isolate": "IIIB (TIBO 82150) (RT-L100I)", "value": "10"}
{"compound": "COCCOC(=O)c1cc(NC(=O)C2=C(C)OCCS2)ccc1Cl", "changes": "RT-Y181C", "strain or isolate": "PYR-resistant (RT Y181C)", "value": ">16.7"}
{"compound": "CCOCn1c(Sc2ccccc2)c(C(C)C)c(=O)[nH]c1=S", "changes": "RT-Y181C", "strain or isolate": "IIIB", "value": "98.9"}
{"compound": "CC(C)OC(=O)c1cc(NC(=S)OCC2CC2)ccc1Cl", "changes": "RT-E138K", "value": "28.6"}
{"compound": "CC(C)c1c(Sc2ccccc2)n(COCc2ccccc2)c(=O)[nH]c1=O", "changes": "RT-Y188H", "strain or isolate": "IIIB", "value": "≥3330"}
{"compound": "Cc1occc1C(=S)Nc1ccc(Cl)c(OCC=C(Cl)Cl)c1", "changes": "RT-L100I", "strain or isolate": "TIBO R82150-resistant (RT L100I)", "value": "16.5"}

For reference, 4 entries again:

compound	changes	strain or isolate	value
COc1ccc(NC(=S)c2ccsc2C)cc1OCC=C(Cl)Cl	RT-L100I	TIBO R82150-resistant (RT L100I)	18
CC1=C(C(=O)Nc2ccc(Cl)c(C(=O)OC(C)C)c2)SCCO1	RT-L100I	IIIB	>2670
CCc1c(Sc2ccccc2)n(COCc2ccccc2)c(=O)[nH]c1=O	RT-L100I	IIIB (TIBO 82150) (RT-L100I)	10
CC(C)OC(=S)Nc1ccc(Cl)c(C(=O)OCC2CC2)c1	RT-L100I	-	17.5